Data: patent US20260001933A1
pKd: −log10 of the molar value.

Target: Protein A (Sensor Chip Protein A, Cytiva) (UniProt P38507)
Test: SPR (Biacore 8K), Sensor Chip Protein A, sample injected over the chip, 1:1 binding kinetic fit; column head 'Kinetics affinity KD (nM)'

## Bedinvetmab (antibody)
  pKd: 11.00
